Test system: bacteria which are resistant to different class of antibiotics and MDR S. aureus
Test: Cross resistance test (MIC), summary

CC1(C)C2CN(c3ccc4nc5ccc(N6CC7C(C6)C7(C)C)cc5[s+]c4c3)CC21 (stereo not shown) [Compound 1, 3,7-Di(6,6-dimethyl-3-azabicyclo[3.1.0]hexan-N-yl)phenothiazinium iodide]
MIC range: 0.25 to 0.5 µg/mL

From patent publication US20240300940A1, “Phenothiazinyl Compounds and Uses” (Prosetta Biosciences, Inc., priority 2023, published 2024)
